According to PubChem BioAssay AID1950 (The Scripps Research Institute Molecular Screening Center, 2009):
The list shows a part of the results, in another mix than the full data. The source made the active and inactive calls. Cut-off read from the data, not from the text of the source: active = inhibition above about 28%; inactive = the rest.

Each compound was assayed on EBNA-1 (Epstein-Barr virus nuclear antigen 1), Human herpesvirus 4 (assay: EBNA-1 DNA-binding inhibitors, primary screen, biochemical, fluorescence polarization (AID 1950)). Settings: at 14.8 µM, active compounds read high.
With `Cc1ccc(C(=O)NCC2(N3CCCCC3)CCCCC2)o1` the inhibition was inactive: 11.5%.
In the case of `Fc1ccccc1NC1CCN(Cc2ccccc2)CC1`, the inhibition is reported as inactive: -10.7%.
`COc1cc(OC)cc(C(=O)NCC2(N3CCCCC3)CCCCC2)c1` was tested, and the inhibition was inactive: 7.27%.
For `CN(C)c1ccc(C(=O)NCC2(N3CCCCC3)CCCCC2)cc1`, the inhibition was inactive: 2.97%.
With `CCN1CCC(Nc2cccc(F)c2)CC1` the inhibition was inactive: -5.58%.
In the case of `CC(C)(C)OC(=O)N1CCC(Nc2ccccc2)CC1`, the inhibition is reported as inactive: -2.21%.
For `O=C(O)C1(Nc2ccccc2)CCN(Cc2ccccc2)CC1`, the inhibition was inactive: -6.22%.
In the case of `CCCOc1ccc(C(=O)NCC2(N(C)C)CCCCC2)cc1`, the inhibition is reported as inactive: -9.68%.
For `CCOc1ncccc1C(=O)NCC1(N2CCOCC2)CCCCC1`, the inhibition was inactive: 11.4%.
`CN1CCC(Nc2ccc(F)c(Cl)c2)CC1` was tested, and the inhibition was inactive: -5.52%.
In the case of `CN1CCC(Nc2ccc(Cl)cc2)CC1`, the inhibition is reported as inactive: 1.31%.
In the case of `CCCOc1ccc(C)cc1CN(CCCl)CCCl`, the inhibition is reported as inactive: -3.5%.
With `COc1cccc(C(=O)N(c2cc(C)cc(C)c2)C2CCN(C(=O)OC(C)(C)C)CC2)c1` the inhibition was inactive: -19.4%.
In the case of `COc1cc(OC)cc(C(=O)NCC2(N3CCOCC3)CCCCC2)c1`, the inhibition is reported as inactive: 6.24%.
With `CCC(CO)(C(=O)OC1CN2CCC1CC2)c1ccccc1` (stereo unspecified) the inhibition was inactive: -2.96%.
In the case of `COc1ccc(C(=O)NCC2(N3CCOCC3)CCCCC2)cc1OC`, the inhibition is reported as inactive: -2.88%.
For `O=C(OC1CN2CCC1CC2)C1c2ccccc2C=Cc2ccccc21` (stereo unspecified), the inhibition was inactive: -7.61%.
For `CCc1cc(C(=O)NCC2(N3CCCCC3)CCCCC2)sc1C`, the inhibition was inactive: -0.69%.
With `CCOC(=O)N1CCC(Nc2ccc(C)cc2)CC1` the inhibition was inactive: 1.59%.
`N/C(=N\O)c1c(N)no[n+]1[O-]` was tested, and the inhibition was inactive: 0.86%.
In the case of `N#Cc1ccc(C(=O)NCC2(N3CCCCC3)CCCCC2)cc1`, the inhibition is reported as inactive: -2.78%.
For `CC(C)(C)OC(=O)N1CCC(N(C(=O)c2ccccc2)c2ccc(Cl)cc2)CC1`, the inhibition was inactive: 5.09%.
`CN(C)C1(CNC(=O)c2cccc(C#N)c2)CCCCC1` was tested, and the inhibition was inactive: 4.13%.
With `c1ccc(CN2CCC(Nc3ccccc3)CC2)cc1` the inhibition was inactive: -5.38%.
`CCCN1CCC(Nc2cc(OC)cc(OC)c2)CC1` was tested, and the inhibition was inactive: -8.53%.
`CCN1CCC(Nc2ccc(Cl)cc2)CC1` was tested, and the inhibition was inactive: -0.53%.
`N#CC1(Nc2ccccc2)CCN(CCc2ccccc2)CC1` was tested, and the inhibition was inactive: 0.43%.
With `O=C(NCC1(N2CCCCC2)CCCCC1)c1cccc([N+](=O)[O-])c1` the inhibition was inactive: 0.96%.
With `O=C(NCC1(N2CCCCC2)CCCCC1)c1ccc(OC(F)F)cc1` the inhibition was inactive: -27%.
For `O=C(NCC1(N2CCOCC2)CCCCC1)c1cc(=O)[nH]c2ccccc12`, the inhibition was inactive: -6.65%.
With `COc1cc(C(=O)NCC2(N3CCCCC3)CCCCC2)ccc1OC(F)F` the inhibition was inactive: -5.14%.
In the case of `COc1ccc(NC2CCN(C(=O)OC(C)(C)C)CC2)cc1`, the inhibition is reported as inactive: -8.45%.
`CN1CCN(CCOC(=O)C(O)(c2ccccc2)c2ccccc2)CC1` was tested, and the inhibition was inactive: -1.23%.
`O=C(NCC1(N2CCCCC2)CCCCC1)c1cccc(C(F)(F)F)c1` was tested, and the inhibition was inactive: 6.59%.
In the case of `COc1cc(OC)c(C(=O)NCC2(N(C)C)CCCCC2)cc1OC`, the inhibition is reported as inactive: 2.82%.
In the case of `CC(C)c1ccc(NC2CCN(C(=O)OC(C)(C)C)CC2)cc1`, the inhibition is reported as inactive: 9.09%.
With `COc1ccc(CN(CCCl)CCCl)cc1Cl` the inhibition was inactive: -6.75%.
In the case of `CN(C)c1cccc(C(=O)NCC2(N3CCCCC3)CCCCC2)c1`, the inhibition is reported as inactive: -2.38%.
With `CN1CCC(Nc2cccc(F)c2)CC1` the inhibition was inactive: 6.93%.
In the case of `CSc1ccccc1C(=O)NCC1(N2CCCCC2)CCCCC1`, the inhibition is reported as inactive: -5.23%.
In the case of `COc1ccc(C(=O)NCC2(N3CCCCC3)CCCCC2)cc1`, the inhibition is reported as inactive: 4.1%.
`COc1ccc(C(=O)NCC2(N3CCCCC3)CCCCC2)c(OC)c1OC` was tested, and the inhibition was inactive: 6.12%.
In the case of `CC(C)(C)OC(=O)N1CCC(N(C(=O)c2ccccc2)c2ccc(F)cc2)CC1`, the inhibition is reported as inactive: -0.07%.
`O=C(NCC1(N2CCCCC2)CCCCC1)c1ccc(=O)[nH]c1` was tested, and the inhibition was inactive: 11.6%.
For `O=C(NCC1(N2CCCCC2)CCCCC1)c1cccs1`, the inhibition was inactive: 7.85%.
With `O=C(OC1CN2CCC1CC2)C1c2ccccc2Oc2ccccc21` (stereo unspecified) the inhibition was inactive: 4.36%.
With `N#CC1(Nc2ccccc2)CCN(Cc2ccccc2)CC1` the inhibition was inactive: 7.18%.
In the case of `CCOC(=O)N1CCC(Nc2ccc(OC)cc2)CC1`, the inhibition is reported as inactive: 12.6%.
With `O=C(NCC1(N2CCCCC2)CCCCC1)c1ccc(Cl)nc1` the inhibition was inactive: -8.01%.
In the case of `Cc1cc(C)cc(N(C(=O)c2ccccc2)C2CCN(C(=O)OC(C)(C)C)CC2)c1`, the inhibition is reported as inactive: 11.8%.
For `O=C(NCC1(N2CCOCC2)CCCCC1)c1cc2ccccc2o1`, the inhibition was inactive: -6.86%.
For `O=C(NCC1(N2CCCCC2)CCCCC1)c1ccc(F)cc1`, the inhibition was inactive: -1.05%.
For `COc1ccc(NC2CCN(CCc3ccccc3)CC2)c(OC)c1`, the inhibition was inactive: -9.4%.
For `CCOc1ccc(C)cc1CN(CCCl)CCCl`, the inhibition was inactive: -2.57%.
With `CCOC(=O)N1CCC(Nc2cccc(C)c2)CC1` the inhibition was inactive: -2.89%.
In the case of `Cc1ccc(OCC(C)C)c(CN(CCCl)CCCl)c1`, the inhibition is reported as inactive: -4.38%.
